Compound potency records, mixed from different reports. Data source: NIAID ChemDB in PubChem.

All rows: cytotoxicity tests; cell line: H9; measure: CC50

CCn is the concentration with n% toxicity to the cells.

structure	method	result
COC(=O)[C@H]1CC[C@H]2[C@@H]3CCC4=CC(=O)CC[C@]4(C)[C@H]3CC[C@]12C	-	15.3 µM
C=C(C)OC(=O)N1c2cc(Cl)ccc2NC(=S)C1(C)C	-	>290 µM
CC1(C)Oc2ccc3ccc(=O)oc3c2[C@@H](OC(=O)C23CCC(C)(C(=O)O2)C3(C)C)[C@H]1OC(=O)C12CCC(C)(C(=O)O1)C2(C)C	-	>16.1 µM
Cc1ccc(C(=O)OC[C@H]2O[C@@H](n3cc(-c4cccn4C)c(N)nc3=O)C[C@@H]2OC(=O)c2ccc(C)cc2)cc1	-	<10 µg/mL
O=C1CC2OC(O)C3OC(=O)c4cc(O)c(O)c(O)c4-c4c(cc(O)c(O)c4O)C(=O)OC3C2OC(=O)c2cc(O)c(O)c(O)c2-c2c1cc(O)c(O)c2O	-	15 µM
Nc1nc(=O)n([C@@H]2C[C@H](O)[C@@H](CO)O2)cc1-c1ccccc1	-	<10 µg/mL
CC(=O)N[C@H]1CCc2cc(O)c(O)c(O)c2-c2ccc(O)c(=O)cc21	-	1.2 µM
COc1ccc2c(c1)N(C(=O)OC(C)C)[C@@H](CSC)C(=S)N2	-	>290 µM
COc1cc(/C=C/C(=O)OCCCc2cc(OC)c3c(c2)[C@@H](COC(=O)/C=C/c2ccc(O)c(OC)c2)[C@H](c2ccc(O)c(OC)c2)O3)ccc1O	-	19.43 µg/mL
CCCCCCCCCCCCCCCC(=O)Nc1ccn([C@H]2C[C@H](OP(=O)(O)OC[C@H]3O[C@@H](n4cc(C)c(=O)[nH]c4=O)C[C@@H]3N=[N+]=[N-])[C@@H](CO)O2)c(=O)n1	-	20 µM
Nc1ncnc2c1ncn2CCOCP(=O)(O)O	-	40 µM
O=C(O[C@@H]1Cc2c(cc(O)c(Cc3c(O)cc4c(c3O)C[C@@H](OC(=O)c3cc(O)c(O)c(O)c3)[C@@H](c3cc(O)c(O)c(O)c3)O4)c2O)OC1c1cc(O)c(O)c(O)c1)c1cc(O)c(O)c(O)c1	-	35 µg/mL
CC1OC(O)C2OC(=O)c3cc(O)c(O)c(O)c3-c3c(cc(O)c(O)c3O)C(=O)OC2C1O	-	15 µM
COc1cc([C@@H]2c3cc4c(cc3[C@@H](O)[C@H]3COC(=O)[C@H]23)OCO4)cc(OC)c1OC(=O)OCc1ccccc1	-	0.201 µg/mL
COc1c(C)c(O)c(C=O)c2c1C(O)C[C@@H](c1ccccc1)O2	cell count	24.2 µg/mL
CC(C)[C@H](NC(=O)N(C)Cc1ccccn1)C(=O)N[C@@H](Cc1ccccc1)[C@H](O)[C@H](O)[C@H](Cc1ccccc1)NC(=O)[C@@H](NC(=O)N(C)Cc1ccccn1)C(C)C	-	>100 µM
Nc1nc(=O)n([C@H]2C[C@H](O)[C@@H](CO)O2)cc1-c1ccccc1	-	<10 µg/mL
Nc1ccn([C@@H]2O[C@H](CO)[C@@H](O)[C@@H]2O)c(=O)n1	-	0.1 µM
CC(C)(C)NC(=O)[C@H]1CC[C@H]2[C@@H]3CCC4=CC(=O)CC[C@]4(C)[C@H]3CC[C@]12C	-	240 µM
CC(C)(C)NC(=O)[C@@H]1C[C@@H]2CCCC[C@@H]2CN1C[C@@H](O)[C@H](Cc1ccccc1)NC(=O)[C@H](CC(N)=O)NC(=O)c1ccc2ccccc2n1	-	20 µg/mL
Nc1ccn([C@@H]2CS[C@H](CO)O2)c(=O)n1	-	>500 µM
COc1cc([C@@H]2c3cc4c(cc3[C@@H](Nc3ccc([N+](=O)[O-])cc3)[C@H]3COC(=O)[C@H]23)OCO4)cc(OC)c1O	-	0.132 µg/mL
COc1cc(CO)c(Cc2c3cc(OC)c(OC)cc3cc[n+]2C)cc1OC	-	>100 µg/mL
CC1(C)Oc2ccc3c(=O)c(-c4ccccc4)coc3c2[C@@H](OC(=O)C23CCC(C)(C(=O)O2)C3(C)C)[C@H]1OC(=O)C12CCC(C)(C(=O)O1)C2(C)C	-	>35.82 µM
COc1cc2oc(-c3ccccc3)cc(=O)c2c(O)c1OC	cell count	20.2 µg/mL
Cc1cn([C@H]2C[C@H](N=[N+]=[N-])[C@@H](CO)O2)c(=O)[nH]c1=O	-	500 µg/mL
Cc1cn([C@H]2C[C@H](N=[N+]=[N-])[C@@H](CO)O2)c(=O)[nH]c1=O	-	500 µg/mL
CCOCc1cc(=O)c2ccc3c(c2o1)[C@@H](OC(=O)C12CCC(C)(C(=O)O1)C2(C)C)[C@@H](OC(=O)C12CCC(C)(C(=O)O1)C2(C)C)C(C)(C)O3	-	15.1 µM
O=c1[nH]c(=O)n([C@H]2C[C@H](F)[C@@H](CO)O2)cc1Br	-	>500 µM
COc1cc(/C=C/C(=O)NCCc2ccc(O)cc2)ccc1O	-	>25 µg/mL
Nc1nc(=O)n([C@H]2C[C@H](O)[C@@H](CO)O2)cc1-c1ccncc1	-	>10 µg/mL
Cc1cn([C@H]2C[C@H](F)[C@@H](CO)O2)c(=O)[nH]c1=O	-	50 µM
Cc1cc(=O)n(C(=O)OC(C)(C)C)c2c3c(ccc12)OC(C)(C)[C@H](OC(=O)C12CCC(C)(C(=O)O1)C2(C)C)[C@@H]3OC(=O)C12CCC(C)(C(=O)O1)C2(C)C	-	>157 µM
O=c1[nH]c(=O)n([C@H]2C[C@H](F)[C@@H](CO)O2)cc1Cl	-	>500 µM
Cc1ccc(C(=O)OC[C@H]2O[C@@H](n3cc(-c4ccoc4)c(N)nc3=O)C[C@@H]2OC(=O)c2ccc(C)cc2)cc1	-	>10 µg/mL
Cc1oc2c3c(ccc2c(=O)c1C)OC(C)(C)[C@H](OC(=O)C12CCC(C)(C(=O)O1)C2(C)C)[C@@H]3OC(=O)C12CCC(C)(C(=O)O1)C2(C)C	-	11.3 µM
COc1cc([C@H]2Oc3c(OC)cc4ccc(=O)oc4c3O[C@@H]2CO)ccc1O	-	18.63 µg/mL
COC(=O)[C@H]1CC[C@H]2[C@@H]3CC=C4CC(O)CC[C@]4(C)[C@H]3CC[C@]12C	-	39.4 µM
CCc1cc(=O)c2ccc3c(c2o1)[C@@H](OC(=O)C12CCC(C)(C(=O)O1)C2(C)C)[C@@H](OC(=O)C(C)C)C(C)(C)O3	-	>46.3 µM
Nc1nc2c(ncn2[C@H]2CC[C@@H](CO)O2)c(=O)o1	MTT	>500 µg/mL
COc1cc2oc(-c3ccccc3)cc(=O)c2c(O)c1O	cell count	11.5 µg/mL
O=C(O[C@@H]1Cc2c(O)cc(O)cc2O[C@@H]1c1cc(O)c(O)c2c1C1C([C@H]3Oc4cc(O)cc(O)c4C[C@H]3O)=CC(=O)C1(O)O2)c1cc(O)c(O)c(O)c1	-	48 µg/mL
O=c1[nH]cnc2c1ncn2[C@H]1CC[C@@H](CO)O1	MTT	>500 µg/mL
C/C=C(/C)C(=O)OC1c2cc3c(c(OC)c2-c2c(cc4c(c2OC)OCO4)C[C@H](C)[C@]1(C)O)OCO3	-	41 µg/mL
CCOc1ccc(Cc2[nH+]c(C)cc3cc(OCC)c(OCC)cc23)cc1OCC	-	>100 µg/mL
O=C1OCC2OC(=O)c3cc(O)c(O)c(O)c3-c3c(O)c(O)c(O)c4c3C(=O)OC(C2OC(=O)c2cc(O)c(O)c(O)c2-c2c1cc(O)c(O)c2O)C1OC(=O)c2c-4c(O)c(O)c(O)c2[C@@H]1O	-	15 µM
Cc1cn([C@H]2C[C@H](N=[N+]=[N-])[C@@H](CO)O2)c(=O)[nH]c1=O	cell count	500 µg/mL
O=C(O[C@@H]1Cc2c(O)cc(O)cc2O[C@@H]1c1cc(O)c(O)c(O)c1-c1c([C@H]2Oc3cc(O)cc(O)c3C[C@H]2O)cc(O)c(O)c1O)c1cc(O)c(O)c(O)c1	-	9.5 µg/mL
O=C1OC2[C@@H](CO)O[C@@H](OC(=O)c3cc(O)c(O)c(O)c3)[C@H](OC(=O)c3cc(O)c(O)c4c3[C@@H]3C1=CC(=O)C(O)(O)C3(O)O4)[C@H]2O	-	70 µM
CCCCCCc1ccsc1-c1cn([C@@H]2C[C@H](OC(=O)c3ccc(C)cc3)[C@@H](COC(=O)c3ccc(C)cc3)O2)c(=O)[nH]c1=O	-	10 µg/mL
O=C(O[C@@H]1OC2CC(=O)c3cc(O)c(O)c(O)c3-c3c(cc(O)c(O)c3O)C(=O)OC2C2OC(=O)c3cc(O)c(O)c(O)c3-c3c(cc(O)c(O)c3O)C(=O)OC21)c1cc(O)c(O)c(O)c1	-	32 µM
COc1cc2c(c(OC)c1OC)-c1ccc(O)c(=O)cc1[C@@H](N)CC2	-	1.2 µM
COc1cc(C(=O)O[C@@H]2Cc3c(O)cc(O)cc3O[C@@H]2c2ccc(O)c(O)c2)cc(O)c1O	-	50 µg/mL
COc1cc(N[C@@H]2c3cc4c(cc3[C@@H](c3cc(OC)c(O)c(OC)c3)[C@H]3C(=O)OC[C@@H]32)OCO4)c(C)cc1[N+](=O)[O-]	-	38.7 µg/mL
CCOc1ccc(Cc2nccc3cc(OCC)c(OCC)cc23)cc1OCC	-	8.48 µg/mL
COc1cc2c(c(OC)c1OC)-c1ccc(N(C)C)c(=O)cc1[C@@H](N)CC2	-	1.6 µM
Nc1ccn([C@@H]2O[C@H](CO)[C@@H](O)C2(F)F)c(=O)n1	-	0.01 µM
O=C(O[C@@H]1O[C@@H]2COC(=O)c3cc(O)c(O)c(O)c3-c3c(cc(O)c(O)c3O)C(=O)O[C@H]([C@H]1OC(=O)c1cc(O)c(O)c(O)c1)[C@@H]2OC(=O)c1cc(O)c(O)c(O)c1)c1cc(O)c(O)c(O)c1	-	34 µM
Cc1cc2ccc(=O)oc2c2c1OC(C)(C)[C@H](OC(=O)C13CCC(C)(C(=O)O1)C3(C)C)[C@@H]2OC(=O)C12CCC(C)(C(=O)O1)C2(C)C	-	33 µM
CCc1cn([C@H]2C[C@H](N=[N+]=[N-])[C@@H](CO)O2)c(=O)[nH]c1=O	-	75 µM
O=C1OCC2OC(=O)c3cc(O)c(O)c(O)c3-c3c(O)c(O)c(O)c4c3C(=O)OC(C2OC(=O)c2cc(O)c(O)c(O)c2-c2c1cc(O)c(O)c2O)C1OC(=O)C2C4=C(O)C(=O)C23Oc2cc(O)c4c(c2C13)O[C@H](c1ccc(O)c(O)c1)C(O)C4	-	15 µM
N[C@H]1CCc2cc(O)c(O)c(O)c2-c2ccc(O)c(=O)cc21	-	50 µM
COc1cc(Cc2c3cc(OC)c(OC)cc3cc(C)[n+]2C)c(C(C)=O)cc1OC	-	20.6 µg/mL
COc1c(C)c(O)c2c(c1C=O)O[C@@H](C)[C@H](C(=O)c1ccccc1)C2=O	cell count	1.89 µg/mL
Nc1nc2c(ncn2[C@@H]2C[C@H](CO)[C@@H](O)[C@H]2O)c(=O)o1	MTT	>500 µg/mL
O=c1[nH]c(=O)n([C@H]2C[C@H](F)[C@@H](CO)O2)cc1I	-	>500 µM
COc1cc(/C=C/C(=O)OCCCc2ccc(O[C@@H](COC(=O)/C=C/c3ccc(O)c(OC)c3)[C@@H](O)c3ccc(O)c(OC)c3)c(O)c2)ccc1O	-	16.64 µg/mL
O=C(O[C@@H]1OC2CC(=O)c3cc(O)c(O)c(O)c3-c3c(cc(O)c(O)c3O)C(=O)OC2C(O)C1O)c1cc(O)c(O)c(O)c1	-	62 µM
Cc1cc(=O)[nH]c2c3c(ccc12)OC(C)(C)[C@H](OC(=O)C12CCC(C)(C(=O)O1)C2(C)C)[C@@H]3OC(=O)C12CCC(C)(C(=O)O1)C2(C)C	-	28 µM
COc1cc2c(cc1OC)[C@@H](Nc1ccc(F)cc1)[C@H]1COC(=O)[C@@H]1[C@@H]2c1cc(OC)c(OC)c(OC)c1	-	1.43 µg/mL

Again, the opening 9 rows:

structure | method | result
COC(=O)[C@H]1CC[C@H]2[C@@H]3CCC4=CC(=O)CC[C@]4(C)[C@H]3CC[C@]12C | - | 15.3 µM
C=C(C)OC(=O)N1c2cc(Cl)ccc2NC(=S)C1(C)C | - | >290 µM
CC1(C)Oc2ccc3ccc(=O)oc3c2[C@@H](OC(=O)C23CCC(C)(C(=O)O2)C3(C)C)[C@H]1OC(=O)C12CCC(C)(C(=O)O1)C2(C)C | - | >16.1 µM
Cc1ccc(C(=O)OC[C@H]2O[C@@H](n3cc(-c4cccn4C)c(N)nc3=O)C[C@@H]2OC(=O)c2ccc(C)cc2)cc1 | - | <10 µg/mL
O=C1CC2OC(O)C3OC(=O)c4cc(O)c(O)c(O)c4-c4c(cc(O)c(O)c4O)C(=O)OC3C2OC(=O)c2cc(O)c(O)c(O)c2-c2c1cc(O)c(O)c2O | - | 15 µM
Nc1nc(=O)n([C@@H]2C[C@H](O)[C@@H](CO)O2)cc1-c1ccccc1 | - | <10 µg/mL
CC(=O)N[C@H]1CCc2cc(O)c(O)c(O)c2-c2ccc(O)c(=O)cc21 | - | 1.2 µM
COc1ccc2c(c1)N(C(=O)OC(C)C)[C@@H](CSC)C(=S)N2 | - | >290 µM
COc1cc(/C=C/C(=O)OCCCc2cc(OC)c3c(c2)[C@@H](COC(=O)/C=C/c2ccc(O)c(OC)c2)[C@H](c2ccc(O)c(OC)c2)O3)ccc1O | - | 19.43 µg/mL

Blank or dashed fields: not listed here. Rows are shuffled and stem from different studies.